Compound potency records, mixed from different reports. Data source: NIAID ChemDB in PubChem.

Shared fields: whole-cell or culture tests; agent: Plasmodium falciparum; endpoint: EC50

Lines come from different laboratories, so protocols vary. Blank or dashed fields: not listed here. ECn is the concentration giving n% inhibition of infection, replication or growth.

SMILES | cells | strain or isolate | value
C/C=C(\C)C(=O)O[C@@H]1CC([C@@H](O)[C@]2(C)C=C3OC(=O)C4=C3[C@H]2[C@H]2OC(=O)[C@H](C)[C@@H]2[C@H](OC(=O)/C(C)=C/C)C4)=C2C(=O)C=C(C)[C@@H]2[C@H]2OC(=O)[C@H](C)[C@@H]21 | - | - | 1.4 µg/mL
Cc1[nH]ccc2c(C)c3nc4ccccc4c3cc12 | - | K1 | 1.4 µM
CN1CCC(N2CCN(C(=O)CC3CCC4(CC3)OOC3(OO4)C4CC5CC(C4)CC3C5)CC2)CC1 | - | 3D7 | 0.006 µM
C/C=C1/CC2CCC3=C(Cc4ccccc43)C2C[C@@H]1C1=CN2c3ccccc3C34CCN5C/C(=C/O)[C@H](C[C@H]53)[C@@H]([C@@H]1O)[C@H]24 | - | 3D7 | 0.698 µg/mL
Cc1cccc(OCCNC(=O)c2ccccc2O)c1 | - | Dd2 | 7.9 µM
C=C(NC(=O)C(=C)NC(=O)c1csc(C2=N[C@@H]3c4csc(n4)[C@H]4NC(=O)c5csc(n5)[C@H]([C@](C)(O)[C@@H](C)O)NC(=O)C5CSC(=N5)/C(=C/C)NC(=O)[C@H]([C@@H](C)O)NC(=O)c5csc(n5)[C@]3(CC2)NC(=O)C(C)NC(=O)C(=C)NC(=O)C(C)NC(=O)C(C(C)CC)NC2C=Cc3c([C@H](C)O)cc(nc3[C@H]2O)C(=O)O[C@@H]4C)n1)C(N)=O | - | NF54 | 0.3877 µM
OCCCCNc1nc(NCCCNc2ccnc3cc(Cl)ccc23)nc(N2CCOCC2)n1 | - | D6 | 0.51 µM
C=C[C@H]1CN2CC[C@H]1C[C@H]2[C@H](O)c1ccnc2ccc(OC)cc12 | - | D10 | 0.215 µM
OCCCCNc1nc(NCCNc2ccnc3cc(Cl)ccc23)nc(N2CCCCC2)n1 | - | W2 | 0.4 µM
COc1cc(/C=C2\CC/C(=C\c3ccc(OCCN(C)C)c(OC)c3)C2=O)ccc1OCCN(C)C | - | W2 | 1.53 µM
O=C(CC1CCC2(CC1)OOC1(OO2)C2CC3CC(C2)CC1C3)N1CCC(N2CCCC2)CC1 | - | K1 | 0.0009 µM
COc1ccc2nccc([C@@H](O)C3CC4CCN3CC4/C=C/c3ccc4ccccc4c3)c2c1 | - | HB3 | >0.5 µM
C[C@H]1[C@@H](OC(=O)CCC(=O)O)O[C@@H]2O[C@@]3(C)CC[C@H]4[C@H](C)CC[C@@H]1[C@@]24OO3 | - | RSA11 | 0.003 µM
OCCCNc1nc(NCCNc2ccnc3cc(Cl)ccc23)nc(N2CCOCC2)n1 | - | D6 | 0.67 µM
COc1cc(/C=C2\CC/C(=C\c3ccc(OCCCn4ccnc4)c(OC)c3)C2=O)ccc1OCCCn1ccnc1 | - | W2 | 0.56 µM
C[C@H]1[C@@H](OC(=O)CCC(=O)O)O[C@@H]2O[C@@]3(C)CC[C@H]4[C@H](C)CC[C@@H]1[C@@]24OO3 | - | K1 | 0.003 µM
CCN(CC)CCCC(C)Nc1ccnc2cc(Cl)ccc12 | - | FCM29 | 0.09 µg/mL
C/C=C1/CN2CCC34c5ccccc5N5C(OC)C67OC(C([C@H]53)[C@H]1C[C@H]24)N1c2ccccc2C2(CCN3C/C(=C/C)[C@@H]6C[C@H]32)[C@@H]17 | - | 3D7 | 0.827 µg/mL
Cc1cccc(OCCNC(=O)c2c(Cl)ccc3cc(Cl)cnc23)c1 | - | Dd2 | >50 µM
C[C@@H]1CC[C@H]2[C@@H](C)C(=O)O[C@@H]3OC4(C)CC[C@@H]1[C@]32OO4 | - | K1 | 0.0021 µM
C/C=C1/CN2CCc3c([nH]c4ccccc34)C2C[C@@H]1C1=CN2c3ccccc3C34CCN5CC6=CCO[C@@H]1[C@@H]([C@H]23)[C@H]6C[C@H]54 | - | W2 | 0.326 µg/mL
O=C(CC1CCC2(CC1)OOC1(OO2)C2CC3CC(C2)CC1C3)N1CCC(N2CCOCC2)CC1 | - | 3D7 | 0.0025 µM
C[C@@H]1CC[C@H]2[C@@H](C)C(=O)O[C@@H]3OC4(C)CC[C@@H]1[C@]32OO4 | - | RSA11 | 0.011 µM
OCCNc1nc(NCCCCNc2ccnc3cc(Cl)ccc23)nc(N2CCCCC2)n1 | - | D6 | 0.19 µM
COc1cc(/C=C2\CC/C(=C\c3ccc(OCCCn4ccnc4C)c(OC)c3)C2=O)ccc1OCCCn1ccnc1C | - | D6 | 4 µM
CCN(CC)CCCC(C)Nc1ccnc2cc(Cl)ccc12 | - | W2 | 0.14 µM
O=P(O)(O)C(O)(Cc1cccnc1)P(=O)(O)O | - | 3D7 | 20.3 µM
C[C@@H]1O[C@@H](OC[C@H]2O[C@@H](Oc3c(-c4ccc(O)c(O)c4)oc4cc(O)cc(O)c4c3=O)[C@H](O)[C@@H](O)[C@@H]2O)[C@H](O)[C@H](O)[C@H]1O | - | Clinical isolates | 7.1 µM
Cc1ccc(NC2=C(ON)C(=O)CS2)cc1C | - | Dd2 | >20 µM
CCN(CCO)CCCC(C)Nc1ccnc2cc(Cl)ccc12 | - | W2 | 0.49 µg/mL
COc1cc(Cl)c(C(=O)NCCOc2cccc(C)c2)cc1OC | - | Dd2 | >50 µM
CCc1nc(N)nc(N)c1-c1ccc(Cl)cc1 | - | NF54 | 0.017 µM
C[C@@H]1CC[C@H]2[C@@H](C)C(=O)O[C@@H]3OC4(C)CC[C@@H]1[C@]32OO4 | - | D6 | 0.015 µM
C[n+]1c2ccccc2cc2[nH]c3ccccc3c21.O=S(=O)([O-])C(F)(F)F | - | 3D7 | 0.91 µM
CN1CCc2cc3c(cc2C(=O)Cc2ccc4c(c2C1)OCO4)OCO3 | - | TM4/8.2 | 1.45 µg/mL
COc1ccc(C(=O)NCCOc2cccc(C)c2)c(Cl)c1 | - | Dd2 | >50 µM
COc1cc2c(cc1O)[C@@H]1Cc3ccc4c(c3CN1CC2)OCO4 | - | TM4/8.2 | 0.9 µg/mL
CCN(CC)CCCC(C)Nc1ccnc2cc(Cl)ccc12 | - | W2 | 0.43 µM
Cc1cccc(OCCNC(=O)c2cc3ccccc3cc2O)c1 | - | Dd2 | 8.4 µM
CCC(C)N1C(=O)C2C(C1=O)[C@H]1CC[C@@H]2O1 | - | W2 | 135 µM
COc1c(O)cc2oc(-c3ccc(O)c(O)c3)cc(=O)c2c1O | - | - | 3.2 µg/mL
OCCCCNc1nc(NCCCCNc2ccnc3cc(Cl)ccc23)nc(N2CCCCC2)n1 | - | W2 | 0.28 µM
Cc1cccc(OCCNC(=O)c2cccnc2Cl)c1 | - | Dd2 | >50 µM
COc1cc2c(cc1O)[C@@H]1Cc3ccc(OC)c(O)c3CN1CC2 | - | TM4/8.2 | 1.78 µg/mL
CC1(C)O[C@@H]1COc1c2occc2cc2ccc(=O)oc12 | RBC | CQ-sensitive | 2.85 µg/mL
Cc1cccc(OC2CN(C(=O)c3ccccc3Cl)C2)c1 | - | Dd2 | 32.6 µM

A second listing of 5 rows from above:

{"SMILES": "COc1cc(/C=C2\\CC/C(=C\\c3ccc(OCCCn4ccnc4C)c(OC)c3)C2=O)ccc1OCCCn1ccnc1C", "strain or isolate": "D6", "value": "4 µM"}
{"SMILES": "Cc1cccc(OCCNC(=O)c2cccnc2Cl)c1", "strain or isolate": "Dd2", "value": ">50 µM"}
{"SMILES": "CN1CCc2cc3c(cc2C(=O)Cc2ccc4c(c2C1)OCO4)OCO3", "strain or isolate": "TM4/8.2", "value": "1.45 µg/mL"}
{"SMILES": "C/C=C1/CN2CCc3c([nH]c4ccccc34)C2C[C@@H]1C1=CN2c3ccccc3C34CCN5CC6=CCO[C@@H]1[C@@H]([C@H]23)[C@H]6C[C@H]54", "strain or isolate": "W2", "value": "0.326 µg/mL"}
{"SMILES": "CCN(CC)CCCC(C)Nc1ccnc2cc(Cl)ccc12", "strain or isolate": "W2", "value": "0.14 µM"}